Compound potency records, mixed from different reports. Data source: NIAID ChemDB in PubChem.

Shared fields: growth or infection tests; organism: HIV-1

a–b is a range or a potency band. An empty or dashed field is not shown. ECn is the concentration giving n% inhibition of infection, replication or growth. Lines come from different laboratories, so protocols vary.

Cc1ncc(-c2ccc(OC3CCCCC3)cn2)c(N2CCC(C)(C)CC2)c1[C@H](OC(C)(C)C)C(=O)O ; method: luminescence ; strain: NL4-3 ; measure: EC50 ; cell line: MT-2 ; value: 0.0063 µM
Cc1ccnc2c1NC(=O)c1cccnc1N2C1CC1 ; changes: K103N/Y181C ; method: p24 / ELISA ; strain: A17 ; measure: EC50 ; cell line: TZM-bl ; value: >10 µM
COc1ccc(NC(=S)c2ccsc2C)cc1OCC=C(Cl)Cl ; changes: RT-V106A ; method: syncytia ; strain: Nevirapine-resistant isolate (RT V106A) ; measure: EC50 ; cell line: CEM ; value: 0.09 µg/mL
O=C1C=CC2Nc3ccccc3C2N1c1ccc([N+](=O)[O-])cc1 ; method: cytopathic effect / MTT ; strain: LAI ; measure: EC50 ; cell line: MT-4 ; value: 1–32 µM
CC(C)C1=C2C3CCC4[C@@]5(C)CC[C@H](OC(=O)CC(C)(C)C(=O)O)C(C)(C)C5CC[C@@]4(C)[C@]3(C)CC[C@@]2(NC(=O)c2ncccn2)CC1=O ; method: RT activity ; strain: IIIB ; measure: EC50 ; conditions: 30% human serum ; cell line: MT-2 ; value: <0.199 µM
Cc1ncc(-c2ccc(OCCOc3cccc(F)c3)cn2)c(N2CCC(C)(C)CC2)c1[C@H](OC(C)(C)C)C(=O)O ; method: luminescence ; strain: NL4-3 ; measure: EC50 ; cell line: MT-2 ; value: 0.0009 µM
CN1c2ccccc2C2C1C=C(C#N)C(=O)N2c1ccc(-c2ccoc2)cc1 ; method: cytopathic effect / MTT ; strain: LAI ; measure: EC50 ; cell line: MT-4 ; value: >32 µM
C=C(Cl)COc1cc(NC(=S)c2ccoc2C)ccc1C ; changes: RT-E138K ; method: syncytia ; strain: TSAO-m3T-resistant (RT E138K) ; measure: EC50 ; cell line: CEM ; value: 0.6 µg/mL
Cc1ncc(-c2cnc(OCCCF)c(F)c2)c(N2CCC(C)(C)CC2)c1[C@H](OC(C)(C)C)C(=O)O ; method: luminescence ; strain: NL4-3 ; measure: EC50 ; cell line: MT-2 ; value: 0.005 µM
CN1c2ccccc2C2C1C=C(/C(N)=N/O)C(=O)N2c1ccc([N+](=O)[O-])cc1 ; method: cytopathic effect / MTT ; strain: LAI ; measure: EC50 ; cell line: MT-4 ; value: 1–32 µM
Cc1nc2ccccc2c(-c2cc(F)c3c(c2C)CCCO3)c1[C@H](OC(C)(C)C)C(=O)O ; changes: V165I ; method: luminescence ; strain: NL4-3 ; measure: EC50 ; cell line: MT-4 ; value: 0.024 µM
CC(C)C1=C2C3CCC4[C@@]5(C)CC[C@H](OC(=O)CC(C)(C)C(=O)O)C(C)(C)C5CC[C@@]4(C)[C@]3(C)CC[C@@]2(NC(=O)NC2(c3ccccn3)CC2)CC1=O ; method: RT activity ; strain: IIIB ; measure: EC50 ; conditions: 30% human serum ; cell line: MT-2 ; value: <0.199 µM
CO[C@]1(C)CC[C@@H](N(C)C(=O)C(=O)N(C)C)c2nc(C(=O)NCc3ccc(F)c(C)c3)c(O)c(=O)n2C1 ; changes: E92Q ; method: single cycle ; measure: EC50 ; cell line: HeLa P4-2 ; value: 0.001 µM
CCCc1cc(=O)oc2c3c(c4c(c12)OC(C)(C)CC4)O[C@@H](C)[C@H](C)[C@@H]3O ; method: RT activity ; strain: CLADE E ; measure: EC50 ; cell line: PBMC ; value: 0.5 µM
COc1ccc(NC(=O)C2=C(C)OCCS2)cc1OCC=C(Cl)Cl ; changes: RT-E138K ; method: syncytia ; strain: TSAO-m3T-resistant (RT E138K) ; measure: EC50 ; cell line: CEM ; value: 10 µg/mL
N#CC1=CC2C(c3ccccc3N2CCN2CCCCC2)N(c2ccc(C#N)cc2)C1=O ; method: cytopathic effect / MTT ; strain: LAI ; measure: EC50 ; cell line: MT-4 ; value: 1–32 µM
C=C(Cl)COc1cc(NC(=S)c2ccoc2C)ccc1Cl ; changes: RT-Y188H ; method: syncytia ; strain: HEPT-resistant (RT Y188H) ; measure: EC50 ; cell line: CEM ; value: 2 µg/mL
C[C@H]1[C@H](O)[C@@H](C)/C=C/C=C/C=C/C=C/C=C/C=C/C=C/[C@H](O[C@@H]2O[C@H](C)[C@@H](O)[C@H](N)[C@@H]2O)C[C@@H]2O[C@](O)(C[C@@H](O)C[C@@H](O)CC[C@H](O)[C@@H](O)C[C@@H](O)CC(=O)O[C@H]1C)C[C@H](O)[C@H]2C(=O)O ; method: p24 / RT activity ; strain: 92UG001 CLADE D X4/X5 (SI) ; measure: EC50 ; cell line: PBMC ; value: 1.7 µM
Cc1ccc(OCCNc2ccc(-c3cnc(C)c([C@H](OC(C)(C)C)C(=O)O)c3N3CCC(C)(C)CC3)nc2)c(C)c1 ; method: luminescence ; strain: NL4-3 ; measure: EC50 ; cell line: MT-2 ; value: 0.0008 µM
Cc1ccc(-c2ccc3c(c2)C=C(C(=O)Nc2ccc(C[N+](C)(C)C4CCOCC4)cc2)CCC3)cc1 ; method: p24 ; strain: COT9 CLADE C ; measure: EC50 ; cell line: PBMC ; value: <1 µM
C=C(Cl)COc1cc(NC(=S)c2ccsc2C)ccc1C#N ; changes: RT-K103N ; method: syncytia ; strain: TIBO R82913-resistant (RT K103N) ; measure: EC50 ; cell line: CEM ; value: 0.4 µg/mL
N#CC1=CC2C(c3ccccc3N2CCCN2CCCC2)N(c2ccc([N+](=O)[O-])cc2)C1=O ; method: cytopathic effect / MTT ; strain: LAI ; measure: EC50 ; cell line: MT-4 ; value: 1–32 µM
CCN1c2ncc(CCOc3ccc(NC(=O)CCC(=O)O)cc3C)cc2C(=O)N(C)c2cccnc21 ; method: p24 ; strain: IIIB ; measure: EC50 ; cell line: C8166 ; value: 0.01–0.05 µM
CC(C)C1=C2C3CCC4[C@@]5(C)CC[C@H](OC(=O)CC(C)(C)C(=O)O)C(C)(C)C5CC[C@@]4(C)[C@]3(C)CC[C@@]2(NC(=O)C2CC3CCC(C2)O3)CC1=O ; method: RT activity ; strain: IIIB ; measure: EC50 ; conditions: 30% human serum ; cell line: MT-2 ; value: <0.199 µM
Cc1ccc(OCCNc2ccc(-c3cnc(C)c([C@H](OC(C)(C)C)C(=O)O)c3N3CCC(C)(C)CC3)cn2)c(Cl)c1 ; method: luminescence ; strain: NL4-3 ; measure: EC50 ; cell line: MT-2 ; value: 0.004 µM
COP(=O)(c1cc(C)cc(CCC#N)c1)c1c(C(N)=O)[nH]c2ccc(Cl)c(F)c12 ; changes: K103N/Y181C ; method: p24 / ELISA ; strain: NL4-3 ; measure: EC50 ; cell line: MT-4 ; value: 0.0028 µM
Cc1cc(CNC(=O)c2nc3n(c(=O)c2O)[C@@H](C)COC[C@H]3N(C)C(=O)C(=O)N(C)C)ccc1F ; changes: Q148R ; method: single cycle ; measure: EC50 ; cell line: HeLa P4-2 ; value: 0.002 µM
CC(C)C1=C2C3CC[C@@H]4[C@@]5(C)CC[C@H](OC(=O)CC(C)(C)C(=O)O)C(C)(C)[C@@H]5CC[C@@]4(C)[C@]3(C)CC[C@@]2(NC(=O)Nc2ccccn2)CC1=O ; method: RT activity ; strain: IIIB ; measure: EC50 ; conditions: 30% human serum ; cell line: MT-2 ; value: <0.199 µM
Cc1ncc(-c2cnc(OCC3CCC3)c(F)c2)c(N2CCC(C)(C)CC2)c1[C@H](OC(C)(C)C)C(=O)O ; method: luminescence ; strain: NL4-3 ; measure: EC50 ; cell line: MT-2 ; value: 0.0037 µM
CC(C)C1=C2C3CCC4[C@@]5(C)CC[C@H](OC(=O)CC(C)(C)C(=O)O)C(C)(C)C5CC[C@@]4(C)[C@]3(C)CC[C@@]2(NC(=O)OC2CCSCC2)CC1=O ; method: RT activity ; strain: IIIB ; measure: EC50 ; conditions: 30% human serum ; cell line: MT-2 ; value: <0.199 µM
N#CC1=CC2C(c3ccccc3N2CCc2cnc[nH]2)N(c2ccc([N+](=O)[O-])cc2)C1=O ; method: cytopathic effect / MTT ; strain: LAI ; measure: EC50 ; cell line: MT-4 ; value: 1–32 µM
Cc1cc(CNC(=O)c2nc3n(c(=O)c2O)[C@H](C)COC[C@@H]3N(C)C(=O)C(=O)N(C)C)ccc1F ; changes: N155H ; method: single cycle ; measure: EC50 ; cell line: HeLa P4-2 ; value: 0.003 µM
CC(C)C1=C2[C@H]3CC[C@@H]4[C@@]5(C)CC[C@H](OC(=O)CC(C)(C)C(=O)O)C(C)(C)[C@@H]5CC[C@@]4(C)[C@]3(C)CC[C@@]2(NC(=O)N2CCN(C(C)C)CC2)CC1=O ; method: RT activity ; strain: IIIB ; measure: EC50 ; conditions: 30% human serum ; cell line: MT-2 ; value: <0.199 µM
CCN1c2ncc(CCOc3ccc(C(=O)c4ccc(C(=O)O)cc4)cc3C)cc2C(=O)N(C)c2cccnc21 ; changes: RT-K103N Y181C ; method: p24 ; measure: EC50 ; cell line: C8166 ; value: 0.01–0.05 µM
CC(C)C1=C2C3CCC4[C@@]5(C)CC[C@H](OC(=O)CC(C)(C)C(=O)O)C(C)(C)C5CC[C@@]4(C)[C@]3(C)CC[C@@]2(NC(=O)N2CC[C@H](NC(=O)OC(C)(C)C)C2)CC1=O ; method: RT activity ; strain: IIIB ; measure: EC50 ; conditions: 30% human serum ; cell line: MT-2 ; value: <0.199 µM
CC1(C)CC=C(c2cn(-c3nccc(C(=O)NC4CCC(N5CC6CCC(C5)O6)CC4)n3)c3ccc(F)c([C@H](OC(C)(C)C)C(=O)O)c23)CC1 ; method: luminescence ; strain: IIIB ; measure: EC90 ; cell line: H9 ; value: 0.0074 µM
CCN1c2ncc(CCOc3ccc(-c4ccc(C(=O)O)cc4)c(C)c3)cc2C(=O)N(C)c2cccnc21 ; changes: RT-K103N Y181C ; method: p24 ; measure: EC50 ; cell line: C8166 ; value: >0.05 µM
Cn1c2ccccc2c2c1cc(C#N)c(=O)n2-c1ccc([N+](=O)[O-])cc1 ; changes: RT-I31L L100I K103N E138G Y181C L214F ; method: cytopathic effect / MTT ; strain: J ; measure: EC50 ; cell line: MT-4 ; value: 0.13 µM
Cc1cc(S(N)(=O)=O)ccc1NC(=O)COc1ccc(Cl)cc1C(=O)c1cc(F)cc(C(F)(F)F)c1 ; changes: RT-L100I ; method: luciferase ; strain: IIIB ; measure: EC50 ; cell line: HELA MAGI ; value: 0.0012 µM
CCN(C(=O)C(=O)N(C)C)[C@H]1CC[C@H](OC)Cn2c1nc(C(=O)NCc1ccc(F)cc1)c(O)c2=O ; changes: G140S/Q148H ; method: single cycle ; measure: EC50 ; cell line: HeLa P4-2 ; value: >0.1 µM
CCN1c2ncc(CCOc3ccc(NC(=O)CC(C)(C)C(=O)O)cc3C)cc2C(=O)N(C)c2cccnc21 ; method: p24 ; strain: IIIB ; measure: EC50 ; cell line: C8166 ; value: <0.01 µM
CC(C)=CCOc1cc(NC(=S)c2ccoc2C)ccc1Cl ; changes: RT-D67N K70R L100I T215Y K219Q ; method: p24 ; strain: 4XAZT+L100I (RT D67N K70R L100I T215Y K219Q) ; measure: EC50 ; cell line: CEM + CEM-SS ; value: 0.2 µM

For reference, 5 entries again:

smiles | changes | method | strain | measure | conditions | cell line | value
COc1ccc(NC(=O)C2=C(C)OCCS2)cc1OCC=C(Cl)Cl | RT-E138K | syncytia | TSAO-m3T-resistant (RT E138K) | EC50 | - | CEM | 10 µg/mL
COc1ccc(NC(=S)c2ccsc2C)cc1OCC=C(Cl)Cl | RT-V106A | syncytia | Nevirapine-resistant isolate (RT V106A) | EC50 | - | CEM | 0.09 µg/mL
CC(C)=CCOc1cc(NC(=S)c2ccoc2C)ccc1Cl | RT-D67N K70R L100I T215Y K219Q | p24 | 4XAZT+L100I (RT D67N K70R L100I T215Y K219Q) | EC50 | - | CEM + CEM-SS | 0.2 µM
CC(C)C1=C2C3CCC4[C@@]5(C)CC[C@H](OC(=O)CC(C)(C)C(=O)O)C(C)(C)C5CC[C@@]4(C)[C@]3(C)CC[C@@]2(NC(=O)NC2(c3ccccn3)CC2)CC1=O | - | RT activity | IIIB | EC50 | 30% human serum | MT-2 | <0.199 µM
Cc1ccc(-c2ccc3c(c2)C=C(C(=O)Nc2ccc(C[N+](C)(C)C4CCOCC4)cc2)CCC3)cc1 | - | p24 | COT9 CLADE C | EC50 | - | PBMC | <1 µM